According to PubChem BioAssay AID485275 (NMMLSC, 2010):
This is a selection; strong and weak results do not stand in their true shares. Some structures show a salt or complex split into parts, the way the source records it. Active and inactive are the calls of the source.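 The calls were made as follows: active = plate passing quality check with inhibition over a set limit, or well fluorescence over plate mean plus 4 SD; inactive = the rest.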

Experiment: antifungal drug efflux pump blockers, triplex strains – S. cerevisiae, Nile Red, multiplex, primary screen (AID 485275);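 also: Nile Red retained in pooled yeast measured as flow cytometry median fluorescence; 0% = buffer negative control and 100% = Enniatin B positive control; higher means more Nile Red kept so more efflux inhibition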
Details: S. cerevisiae Candida pump triplex, at 10 µM, active compounds read high

Q: For `CP(=O)(Oc1ccccc1)N1CCOC1=O` (centres undefined), which inhibition is on record?
A: inactive: 0%

Q: Which inhibition does the source give for `CCc1ccc(OP(C)(=O)Nc2cccnc2)cc1` (centres undefined) here?
A: inactive: 0.21%

Q: For `COc1ccccc1OP(C)(=O)Nc1c(C)n(C)n(-c2ccccc2)c1=O` (centres undefined), which inhibition is on record?
A: inactive: 0.01%

Q: Which inhibition does the source give for `O=C(OCCCN1CCCC1)C(O)(c1ccccc1)C1CCCCC1` (centres undefined) here?
A: inactive: -0.01%

Q: For `CCN(CC)CC(O)COC(=O)C(O)(c1ccccc1)C1CCCCC1` (centres undefined), which inhibition is on record?
A: inactive: -0.3%

Q: With `COc1ccc(OP(C)(=O)Nc2ccc(Br)cc2)cc1` (centres undefined) as the compound, how does the inhibition read?
A: inactive: 0.25%

Q: With `CN(C)C(=O)c1c([N+](=O)[O-])cc([N+](=O)[O-])cc1[N+](=O)[O-]` as the compound, how does the inhibition read?
A: inactive: -0.02%

Q: With `CP(=O)(Nc1ccc(Cl)cc1)Oc1ccc(F)cc1` (centres undefined) as the compound, how does the inhibition read?
A: inactive: -0.03%

Q: With `CC(C)(C)c1ccc(OP(C)(=O)O)cc1` as the compound, how does the inhibition read?
A: inactive: -0.24%

Q: With `COc1ccccc1OP(C)(=O)Nc1ccccc1Br` (centres undefined) as the compound, how does the inhibition read?
A: inactive: -0.03%

Q: For `CP(=O)(OC12CC3CC(CC(C3)C1)C2)OC12CC3CC(CC(C3)C1)C2`, which inhibition is on record?
A: inactive: 0.19%

Q: Which inhibition does the source give for `CCOC(=O)c1ccc(NP(C)(=O)Oc2ccc(Cl)cc2)cc1` (centres undefined) here?
A: inactive: -0.12%

Q: Which inhibition does the source give for `Nc1ccc2c(ccc3cccnc32)n1.O=[N+]([O-])c1cc([N+](=O)[O-])c(O)c([N+](=O)[O-])c1` here?
A: inactive: 0.04%

Q: With `COc1ccc(OP(C)(=O)Nc2ccccc2Br)cc1` (centres undefined) as the compound, how does the inhibition read?
A: inactive: 0.02%

Q: For `COc1ccccc1OP(C)(=O)Nc1ccc(C)c(C)c1` (centres undefined), which inhibition is on record?
A: inactive: 0.02%

Q: For `Cc1cc(C)cc(OP(C)(=O)Nc2cccc(C(F)(F)F)c2)c1` (centres undefined), which inhibition is on record?
A: inactive: -0.05%

Q: For `CP(=O)(OCCOc1ccccc1)OCCOc1ccccc1`, which inhibition is on record?
A: inactive: 0.08%

Q: Which inhibition does the source give for `CP(=O)(Nc1ccc(Cl)cc1Cl)Oc1ccccc1` (centres undefined) here?
A: inactive: 0%

Q: For `Cc1nc2ccc3ccccc3c2o1.O=[N+]([O-])c1cc([N+](=O)[O-])c(O)c([N+](=O)[O-])c1`, which inhibition is on record?
A: inactive: -0.06%

Q: For `CN(C)CCOC(=O)C(O)(c1ccccc1)C1CCCC1` (centres undefined), which inhibition is on record?
A: inactive: -0.06%

Q: Which inhibition does the source give for `COc1ccc(OP(C)(=O)Nc2ccccn2)cc1` (centres undefined) here?
A: inactive: 0.01%

Q: Which inhibition does the source give for `COc1ccccc1OP(C)(=O)Nc1ccc(Br)cc1` (centres undefined) here?
A: inactive: 0.24%

Q: With `CCc1ccc(OP(C)(=O)O)cc1` as the compound, how does the inhibition read?
A: inactive: -0.06%

Q: For `CP(=O)(Nc1ccccn1)Oc1ccccc1` (centres undefined), which inhibition is on record?
A: inactive: -0.04%

Q: Which inhibition does the source give for `COc1ccccc1OP(C)(=O)Nc1ccc(C)cc1C` (centres undefined) here?
A: inactive: -0.12%

Q: Which inhibition does the source give for `O=[N+]([O-])c1cc([N+](=O)[O-])c(Nc2ccccn2)c([N+](=O)[O-])c1` here?
A: inactive: -0.05%

Q: Which inhibition does the source give for `Cc1c(NP(C)(=O)Oc2ccc(C(C)C)cc2)c(=O)n(-c2ccccc2)n1C` (centres undefined) here?
A: inactive: 0.01%

Q: With `CC(C)c1ccc(OP(C)(=O)Nc2ccc(SC(F)(F)F)cc2)cc1` (centres undefined) as the compound, how does the inhibition read?
A: inactive: 0.53%

Q: With `CP(=O)(Nc1ccccc1F)Oc1ccccc1` (centres undefined) as the compound, how does the inhibition read?
A: inactive: 0%

Q: Which inhibition does the source give for `COc1ccc2c(c1O)-c1c(O)c(OC)cc3c1[C@H](C2)[N+](C)(C)CC3.O=[N+]([O-])c1cc([N+](=O)[O-])c([O-])c([N+](=O)[O-])c1[O-]` here?
A: inactive: 0%

Q: Which inhibition does the source give for `O=C(OCCN1CCN(CCOCc2ccccc2)CC1)C(O)(c1ccccc1)c1ccccc1` here?
A: inactive: -0.06%

Q: Which inhibition does the source give for `O=C(OC1CN2CCC1CC2)c1ccc([N+](=O)[O-])cc1` (centres undefined) here?
A: inactive: 0.12%

Q: Which inhibition does the source give for `COc1ccc(OP(C)(=O)Nc2ccc(SC(F)(F)F)cc2)cc1` (centres undefined) here?
A: inactive: 0.04%

Q: For `CCOC(=O)c1ccc(NP(C)(=O)Oc2ccc(F)cc2)cc1` (centres undefined), which inhibition is on record?
A: inactive: -1.05%

Q: With `CCCCCOc1ccc(NP(C)(=O)Oc2ccc(Cl)cc2Cl)cc1` (centres undefined) as the compound, how does the inhibition read?
A: inactive: 0.02%

Q: Which inhibition does the source give for `O=[N+]([O-])c1cc([N+](=O)[O-])c(OC2CCCCC2O)c([N+](=O)[O-])c1` (centres undefined) here?
A: inactive: -0.04%

Q: With `CP(=O)(Nc1ccccc1)Oc1ccc(F)cc1` (centres undefined) as the compound, how does the inhibition read?
A: inactive: 0.05%

Q: For `CCN(CC)CCCOC(=O)C(O)(c1ccccc1)C1CCCCC1` (centres undefined), which inhibition is on record?
A: inactive: 0.17%

Q: With `COc1ccc(NP(C)(=O)Oc2ccccc2OC)cc1` (centres undefined) as the compound, how does the inhibition read?
A: inactive: -0.03%

Q: Which inhibition does the source give for `CN(C)CCOC(=O)C(O)(c1ccccc1)C1CCCCC1` (centres undefined) here?
A: inactive: 0.01%

Q: For `COc1ccc(OP(C)(=O)Nc2cccc(Br)c2)cc1` (centres undefined), which inhibition is on record?
A: inactive: -0.09%

Q: Which inhibition does the source give for `O=[N+]([O-])c1cc([N+](=O)[O-])c(NCC2CCS(=O)(=O)C2)c([N+](=O)[O-])c1` (centres undefined) here?
A: inactive: 0.13%

Q: With `O=[N+]([O-])c1ccc(OP2(=O)COCCO2)cc1` (centres undefined) as the compound, how does the inhibition read?
A: inactive: 0.01%

Q: For `CCOP(C)(=S)SCC(=O)NC(C)(CC)C(=O)O` (centres undefined), which inhibition is on record?
A: inactive: -0.08%

Q: For `CP(=O)(Nc1ccc(SC(F)(F)F)cc1)Oc1ccc(F)cc1` (centres undefined), which inhibition is on record?
A: inactive: -0.04%

Q: For `Cc1ccccc1NP(C)(=O)Nc1ccccc1C`, which inhibition is on record?
A: inactive: 0.84%

Q: Which inhibition does the source give for `CP(=O)(Nc1ccc2c(c1)OCCO2)Oc1ccccc1` (centres undefined) here?
A: inactive: -0.01%

Q: Which inhibition does the source give for `O=[N+]([O-])c1cc([N+](=O)[O-])c(-n2nnc3ccccc32)c([N+](=O)[O-])c1` here?
A: inactive: 0.03%

Q: Which inhibition does the source give for `Cc1nc2ccc3ccccc3c2s1.O=[N+]([O-])c1cc([N+](=O)[O-])c(O)c([N+](=O)[O-])c1` here?
A: inactive: 0.02%

Q: Which inhibition does the source give for `O=[N+]([O-])c1cc([N+](=O)[O-])c(-c2cnn(-c3ccccc3)c2)c([N+](=O)[O-])c1` here?
A: inactive: -0.08%

Q: With `O=[N+]([O-])c1cc([N+](=O)[O-])c(Nc2nnnn2CCO)c([N+](=O)[O-])c1` as the compound, how does the inhibition read?
A: inactive: -0.06%

Q: With `CC1=C2N=C(C=C3N=C(C(C)=C4[N-][C@@](C)([C@@H]5N=C1[C@](C)(CCC(=O)NC[C@@H](C)OP(=O)([O-])O[C@H]1[C@@H](O)[C@@H](n6cnc7cc(C)c(C)cc76)O[C@@H]1CO)[C@H]5CC(N)=O)[C@@](C)(CC(N)=O)[C@@H]4CCC(N)=O)[C@@](C)(CC(N)=O)[C@@H]3CCC(N)=O)C(C)(C)[C@@H]2CCC(N)=O.[C-]#N.[Co+3]` as the compound, how does the inhibition read?
A: inactive: -0.06%

Q: For `CCOC(=O)C(CC)C1=NC(C)(C)Cc2ccccc21.O=[N+]([O-])c1cc([N+](=O)[O-])c(O)c([N+](=O)[O-])c1` (centres undefined), which inhibition is on record?
A: inactive: -0.17%

Q: For `CP(=O)(Nc1ccc(SC(F)(F)F)cc1)Oc1ccccc1` (centres undefined), which inhibition is on record?
A: inactive: 0.23%

Q: For `CCCOc1ccc(NP(C)(=O)Oc2ccc(Cl)cc2)cc1` (centres undefined), which inhibition is on record?
A: inactive: 0.1%

Q: Which inhibition does the source give for `COc1ccccc1OP(C)(=O)Nc1c(C)cccc1C` (centres undefined) here?
A: inactive: -0.01%

Q: Which inhibition does the source give for `CN1CCCCC1COC(=O)C1(O)c2ccccc2CCc2ccccc21` (centres undefined) here?
A: inactive: 0.34%

Q: With `O=C(O)c1cccc(Nc2c([N+](=O)[O-])cc([N+](=O)[O-])cc2[N+](=O)[O-])c1` as the compound, how does the inhibition read?
A: inactive: 0.07%

Q: Which inhibition does the source give for `CC1=NCCc2c1[nH]c1ccccc21.O=[N+]([O-])c1cc([N+](=O)[O-])c(O)c([N+](=O)[O-])c1` here?
A: inactive: -0.17%

Q: With `Cc1cc(C)cc(OP(C)(=O)Nc2ccc(C)cc2C)c1` (centres undefined) as the compound, how does the inhibition read?
A: inactive: 0.02%

Q: Which inhibition does the source give for `CCOC(=O)c1ccc(NP(C)(=O)Oc2cc(C)cc(C)c2)cc1` (centres undefined) here?
A: inactive: 0.09%

Q: For `COc1ccccc1OP(C)(=O)Nc1cccc(Br)c1` (centres undefined), which inhibition is on record?
A: inactive: -0.01%

Q: Which inhibition does the source give for `CP(=O)(Nc1cccc(Br)c1)Oc1ccccc1` (centres undefined) here?
A: inactive: 0.01%

Q: For `Cc1cc(C)cc(OP(C)(=O)Nc2ccccn2)c1` (centres undefined), which inhibition is on record?
A: inactive: -0.01%

Q: For `Cc1ccc(C)c(NP(C)(=O)Oc2ccccc2)c1` (centres undefined), which inhibition is on record?
A: inactive: -0.07%

Q: With `CCN(CC)CCCOC(=O)C(O)(c1ccccc1)c1ccccc1` as the compound, how does the inhibition read?
A: inactive: -0.15%

Q: With `CC(C)(C)c1ccc(OP(C)(=O)Nc2ccc(SC(F)(F)F)cc2)cc1` (centres undefined) as the compound, how does the inhibition read?
A: inactive: -0.25%

Q: With `Cc1cccc(C)c1OP(C)(N)=O` (centres undefined) as the compound, how does the inhibition read?
A: inactive: 0.02%

Q: Which inhibition does the source give for `O=[N+]([O-])c1ccc2c(c1)C=Nc1ccccc1O2` here?
A: inactive: -0.02%

Q: With `O=[N+]([O-])c1cc([N+](=O)[O-])c(Nc2cccnc2)c([N+](=O)[O-])c1` as the compound, how does the inhibition read?
A: inactive: 0.05%

Q: For `COc1ccccc1OP(C)(=O)Nc1cc(Cl)ccc1C` (centres undefined), which inhibition is on record?
A: inactive: 0.23%

Q: For `COc1ccc(OP(C)(=O)Nc2cccc(F)c2)cc1` (centres undefined), which inhibition is on record?
A: inactive: 0%

Q: For `Cc1cc(C)cc(OP(C)(N)=O)c1` (centres undefined), which inhibition is on record?
A: inactive: 0.12%

Q: With `CCOC(=O)c1ccc(NP(C)(=O)Oc2ccccc2)cc1` (centres undefined) as the compound, how does the inhibition read?
A: inactive: -0.14%

Q: For `COc1ccccc1OP(C)(=O)Nc1ccc(C)cc1` (centres undefined), which inhibition is on record?
A: inactive: 0.04%

Q: For `Cc1ccc(NP(C)(=O)Oc2ccccc2)c(C)c1` (centres undefined), which inhibition is on record?
A: inactive: -0.02%

Q: With `COc1ccccc1OP(C)(=O)Nc1ccccc1` (centres undefined) as the compound, how does the inhibition read?
A: inactive: 0.09%

Q: Which inhibition does the source give for `CP(=O)(Nc1ccccc1Br)Oc1ccccc1` (centres undefined) here?
A: inactive: -0.08%

Q: Which inhibition does the source give for `CP(=S)(Nn1cnnc1)Oc1ccccc1` (centres undefined) here?
A: inactive: 0%

Q: With `CCc1ccc(OP(C)(=O)N2CCN(c3ccc([N+](=O)[O-])cc3)CC2)cc1` (centres undefined) as the compound, how does the inhibition read?
A: inactive: 0.05%

Q: With `CP(=O)(NC(=O)Nc1ccccc1)Oc1ccccc1` (centres undefined) as the compound, how does the inhibition read?
A: inactive: 0.01%

Q: For `Cc1cc(C)cc(OP(C)(=O)Nc2ccc(SC(F)(F)F)cc2)c1` (centres undefined), which inhibition is on record?
A: inactive: -0.19%

Q: Which inhibition does the source give for `Cc1cccc(C)c1OP(C)(=O)Nc1ccc(SC(F)(F)F)cc1` (centres undefined) here?
A: inactive: 0.1%

Q: Which inhibition does the source give for `CP(=O)(Nc1ccc(SC(F)(F)F)cc1)Oc1ccc(Cl)cc1` (centres undefined) here?
A: inactive: 0.19%

Q: For `CP(=O)(Oc1ccccc1)OC(c1ccccc1)C(F)(F)F` (centres undefined), which inhibition is on record?
A: inactive: -0.03%

Q: Which inhibition does the source give for `CP(=O)(Nc1ccccn1)Oc1ccc(Cl)cc1` (centres undefined) here?
A: inactive: 1.79%

Q: Which inhibition does the source give for `CCOP(C)(=S)SCC(=O)NC(C)C(=O)O` (centres undefined) here?
A: inactive: -0.15%

Q: With `CCOC(=O)c1ccc(NP(C)(=O)Oc2ccc(OC)cc2)cc1` (centres undefined) as the compound, how does the inhibition read?
A: inactive: 0.01%

Q: With `O=[N+]([O-])c1cc([N+](=O)[O-])c(O)c([N+](=O)[O-])c1.c1ccc(Oc2ccncc2)cc1` as the compound, how does the inhibition read?
A: inactive: -0.05%
